Compound potency records, mixed from different reports. Data source: NIAID ChemDB in PubChem.

Shared fields: whole-cell or culture tests; species: HIV-1; cell line: CEM; read-out: EC50

An empty or dashed field is not shown. a–b is a range or a potency band. Rows are shuffled and stem from different studies. ECn is the concentration giving n% inhibition of infection, replication or growth.

structure | strain | changes | read by | result
Cc1c(O)cccc1C(=O)N(O)[C@@H](Cc1ccccc1)C(=O)N1CCC[C@@H]1C(=O)NC(C)(C)C | IIIB |  | p24 | 0.71 µM
CC(=O)OCC1OC(SC2C(OC(C)=O)OC(COC(C)=O)C(OC(C)=O)C2OC(C)=O)C(OC(C)=O)C(OC(C)=O)C1OC(C)=O |  |  | XTT | 51.4 µg/mL
C/C(Cl)=C/COc1cc(NC(=O)c2ccoc2C)ccc1Cl | HEPT-resistant (RT Y188H) | RT-Y188H | syncytia | 10 µg/mL
CO[C@H]1N([C@H]2C=C[C@@H](CO)O2)C(=O)NC(=O)[C@]1(C)I |  |  | cytopathic effect / XTT | 0.375 µM
CC[C@H](C)[C@H](NC(=O)c1ccccc1SSc1ccccc1C(=O)N[C@H](C(=O)O)[C@@H](C)CC)C(=O)O | IIIB |  | cytopathic effect / XTT | 7 µM
C=CSC(NC(=O)[C@H](Cc1ccccc1)NS(=O)(=O)N1CCOCC1)C(=O)N[C@@H](CC1CCCCC1)[C@@H](O)C[C@H](C(=O)NCCCC)C(C)C | IIIB |  | cytopathic effect / XTT | >13 µM
CNOC(=O)Cn1c(=O)c(C)cn([C@@H]2O[C@H](CO[Si](C)(C)C(C)(C)C)[C@@H](O)[C@H]2O[Si](C)(C)C(C)(C)C)c1=O | IIIB |  | syncytia | ≥10 µM
Cc1nc2c(N)ncnc2n1[C@H]1CC[C@@H](CO)O1 |  |  | cytopathic effect | >100 µg/mL
Brc1ccccc1C1SCc2nc3ncccc3n21 | RF |  | cytopathic effect / XTT | >2.48 µM
Cc1c(N)nc(N)n(CCOCP(=O)(O)O)c1=O | IIIB |  | syncytia | ≥300 µM
Cc1cn([C@@H]2O[C@H](CO)[C@@H](N=[N+]=[N-])[C@@H]2F)c(=O)[nH]c1=O |  |  | p24 | >100 µM
CCCC[C@@H](CC(=O)O)NC(=O)c1ccccc1SSc1ccccc1C(=O)N[C@@H](CCCC)CC(=O)O | IIIB |  | cytopathic effect / XTT | 1.9 µM
CC(C)(C)NC(=O)c1cc2ccccc2cc1OC[C@@H](O)[C@H](Cc1ccccc1)NC(=O)[C@H](CC(N)=O)NC(=O)c1ccc2ccccc2n1 | IIIB |  | cytopathic effect / MTT | 0.24 µM
C=CCN(CC(=O)N[C@H](C(=O)N[C@H](C(=O)OC)C(C)C)[C@@H](C)CC)C(=O)[C@H](Cc1ccccc1)NC(=O)[C@H](C)NC(=O)OC(C)(C)C | LAI |  | RT activity | 10 µg/mL
O=C(Nc1cscc1S(=O)(=O)c1ccccc1)C(=O)C(=O)N(CC1CCCC1)S(=O)(=O)c1ccccc1 | IIIB |  | p24 | <1 µM
C[C@]1(Br)C(=O)NC(=O)N([C@H]2C=C[C@@H](CO)O2)[C@@H]1N=[N+]=[N-] |  |  | cytopathic effect / XTT | 0.918 µM
Clc1cccc(Cl)c1C1SCc2nc3ncccc3n21 | RF |  | cytopathic effect / XTT | 21 µM
Nc1ccc(C[C@H](NC(=O)c2ccccc2SSc2ccccc2C(=O)N[C@@H](Cc2ccc(N)cc2)C(=O)O)C(=O)O)cc1 | IIIB |  | cytopathic effect / XTT | >15 µM
CC(C)(C)NC(=O)[C@H]1CCCN1C(=O)[C@H](Cc1ccccc1)N(O)C(=O)[C@H](Cc1ccccc1)NC(=O)OCc1ccccc1 | IIIB |  | p24 | 0.371 µM
O=C(Nc1ccc(Cl)c(C(=O)OC2CCCCC2)c1)c1ccccc1F | IIIB | RT-V106A | syncytia | 2 µg/mL
NC(=O)CNC(=O)c1ccccc1SSc1ccccc1C(=O)NCC(N)=O | IIIB |  | cytopathic effect / XTT | 1.4 µM
CC(=O)Sc1ccccc1C(=O)NCCC(N)=O | RF |  | XTT | 3.2 µM
Cc1occc1C(=S)Nc1ccc(Cl)c(SCC=C(Cl)Cl)c1 | TSAO-m3T-resistant (RT E138K) | RT-E138K | syncytia | 0.03 µg/mL
Cc1cn([C@@H]2O[C@H](CO[Si](C)(C)C(C)(C)C)[C@@H](O)[C@H]2O[Si](C)(C)C(C)(C)C)c(=O)n(CCC(=O)O)c1=O | IIIB |  | syncytia | >10 µM
Cc1occc1C(=S)Nc1ccc(Cl)c(OCC=C(Cl)Cl)c1 | TIBO R82913-resistant (RT K103N) | RT-K103N | syncytia | 0.28 µg/mL
CCC(C)(C)C(=O)C(=O)N1CCCCC1C(=O)OC(CCc1ccc(OC)c(OC)c1)c1cccc(NC(=O)CCC(=O)N[C@@H](Cc2ccccc2)[C@H](O)CN(CC(C)C)S(=O)(=O)c2ccc(OC)cc2)c1 | LAI |  | p24 / ELISA | 0.0025 µM
Cc1cn([C@@H]2O[C@H](CO)C=C2F)c(=O)[nH]c1=O |  |  | p24 | 10–100 µM
CO[C@@H]1C[C@H](n2ncc3c(N)ncnc32)[C@@H](O)[C@H]1O | IIIB |  |  | >250 µg/mL
CC[C@H](C)[C@H](NC(=O)C(C)N(C(=O)[C@H](Cc1ccccc1)NC(=O)[C@H](C)NC(=O)OC(C)(C)C)C(Cl)CCl)C(=O)N[C@H](C(=O)OC)C(C)C | LAI |  | RT activity | 100 µg/mL
O=C(N[C@@H](Cc1ccccc1)C(=O)NCC[C@@H](CO)NC(=O)[C@H](Cc1ccccc1)NC(=O)OCC1c2ccccc2-c2ccccc21)OCC1c2ccccc2-c2ccccc21 | IIIB |  | p24 | 0.11 µM
C=CCN(C(=O)[C@H](Cc1ccccc1)NC(=O)[C@H](C)NC(=O)OC(C)(C)C)C(C)C(=O)N[C@H](C(=O)N[C@H](C(=O)OC)C(C)C)[C@@H](C)CC | LAI |  | cytopathic effect / MTT | 80 µg/mL
Cc1cn([C@@H]2O[C@H](COC(=O)C(C)(C)C)[C@@H](O)[C@H]2OC(=O)C(C)(C)C)c(=O)n(CC(=O)O)c1=O | IIIB |  | syncytia | 80 µM
CC(=O)COc1cc(NC(=S)OC(C)C)ccc1Cl | IIIB |  | syncytia | 2.7 µM
NC1=NNC2(C(N)=N1)c1ccccc1-c1ccccc12 |  |  | cytopathic effect / XTT | >20 µM
O=C(NC(CC1CCCC1)C(=O)O)c1ccccc1SSc1ccccc1C(=O)NC(CC1CCCC1)C(=O)O | IIIB |  | cytopathic effect / XTT | 8.3 µM
CCOC(=O)Cc1c(N)nc(N)nc1OCCOCP(=O)(O)O | IIIB |  | syncytia | ≥300 µM
O=C1N=C2SC=C(NC(=S)Nc3ccccc3)N2NC12c1ccccc1-c1ccccc12 |  |  | cytopathic effect / XTT | >63 µM
C=C(Cl)COc1cc(NC(=S)c2ccoc2C)ccc1C | HEPT-resistant (RT Y188H) | RT-Y188H | syncytia | 2 µg/mL
Cc1cc(=O)c2c(O)c3c(O)cc(O)c4c5c(O)cc(O)c6c(O)c7c(=O)cc(C)c8c1c2c(c34)c(c65)c78 | LAV-1 |  | cytopathic effect / p24 / ELISA | <1 µg/mL
O=C(N[C@@H](CCC1CCCCC1)C(=O)O)c1ccccc1SSc1ccccc1C(=O)N[C@@H](CCC1CCCCC1)C(=O)O | IIIB |  | cytopathic effect / XTT | 5.6 µM
COC(=O)Cn1c(=O)c(C)cn([C@@H]2O[C@H](CO[Si](C)(C)C(C)(C)C)[C@@H](O[Si](C)(C)C(C)(C)C)[C@H]2O)c1=O | IIIB |  | syncytia | >2 µM
S=C1NNC2(C(=S)N1)c1ccccc1-c1ccccc12 |  |  | cytopathic effect / XTT | >0.63 µM
CC1(C)N=C(N)N=C(N)N1c1cccc(CCCCOc2ccccc2)c1 |  |  | cytopathic effect / XTT | 0.00525 µM
COc1ccc(NC(=S)c2ccsc2C)cc1OCC=C(Cl)Cl | IIIB |  | syncytia | 0.005 µg/mL
C=CCNC(=O)NC1=CSC2=NC(=O)C3(NN12)c1ccccc1-c1ccccc13 |  |  | cytopathic effect / XTT | >20 µM
O=C(c1ccccc1)N(CCc1ccccc1)C[C@H](O)CN(CC1CCCC1)S(=O)(=O)Cc1cccc2n[nH]nc12 | IIIB |  | p24 | <1 µM
Cc1cn([C@H]2C=C[C@@H](CO)O2)c(=O)[nH]c1=O |  |  | cytopathic effect | 0.65 µM
Nc1nc(N)n(CCOCP(=O)(O)O)c(=O)c1-c1ccccc1 | IIIB |  | syncytia | ≥300 µM
CC1=C(C(=S)Nc2ccc(Cl)c(/C=N/OC(C)(C)C)c2)CCO1 | IIIB | RT-L100I | syncytia | 0.065 µg/mL
OC[C@H]1O[C@H](c2cc(Cl)c(F)cc2F)C[C@@H]1O | IIIB |  | syncytia | >250 µM
COc1ccc(S(=O)(=O)N(CC(O)CN(CCc2ccccc2)S(=O)(=O)c2ccccc2)CC2CCCC2)cc1 | IIIB |  | p24 | <1 µM
Nc1nc(N)n(CCOCP(=O)(O)O)c(=O)c1C1CC1 | IIIB |  | syncytia | ≥300 µM
O=C(CSC1=NNC2(C(=O)N1)c1ccccc1-c1ccccc12)NC(=S)Nc1ccccc1 |  |  | cytopathic effect / XTT | >6.3 µM
O=C(O)CCCCCNC(=O)c1ccccc1SSc1ccccc1C(=O)NCCCCCC(=O)O | IIIB |  | cytopathic effect / XTT | 1.8 µM
CC(C)(C)[Si](C)(C)OC[C@H]1O[C@@H](n2cnc3c(=O)n(CC(=O)O)cnc32)[C@H](O)[C@@H]1O[Si](C)(C)C(C)(C)C | IIIB |  | syncytia | ≥50 µM
CC(C)(C)NC(=O)c1ccccc1SC[C@@H](O)[C@H](Cc1ccccc1)NC(=O)[C@H](CC(N)=O)NC(=O)c1ccc2ccccc2n1 | IIIB |  | cytopathic effect / MTT | 0.25 µM
Fc1ccccc1C1SCc2nc3ncccc3n21 | RF |  | cytopathic effect / XTT | >95.9 µM
COc1ccc(/C=N/N=C(\N)NO)cc1O.Cc1ccc(S(=O)(=O)O)cc1 | IIIB |  | cytopathic effect | 26 µg/mL
CNOC(=O)Cn1c(=O)c(C)cn([C@@H]2O[C@H](CO[Si](C)(C)C(C)(C)C)[C@@H](O[Si](C)(C)C(C)(C)C)[C@H]2O)c1=O | IIIB |  | syncytia | ≥10 µM
C=C(Cl)COc1cc(NC(=S)c2ccsc2C)ccc1C#N | IIIB |  | syncytia | 0.03 µg/mL
Cc1c(O)cccc1C(=O)N[C@@H](Cc1ccccc1)C(=O)N(O)[C@@H](Cc1ccccc1)C(=O)N1CCC[C@@H]1C(=O)NC(C)(C)C | IIIB |  | p24 | 0.63 µM
COC1CCC(S(=O)(=O)N(CC2CCCC2)C[C@@H](O)CN(CCc2ccccc2)C(=O)c2ccccc2)CO1 | IIIB |  | p24 | <1 µM
COc1ccc(/C=N/N=C(\N)NO)c(Cl)c1O.Cc1ccc(S(=O)(=O)O)cc1 | IIIB |  | cytopathic effect | 4.5 µg/mL
CC(C)CN(CCC(O)CN1CCN(Cc2cccnc2)C[C@H]1C(=O)NC(C)(C)C)S(=O)(=O)c1ccccc1 | IIIB |  | p24 | <1 µM
CO[C@H]1C[C@@H](n2cnc3c(N)ncnc32)[C@H](O)[C@@H]1O | IIIB |  |  | >250 µg/mL
Nc1nc(N)c(Cl)c(OCCOCP(=O)(O)O)n1 | IIIB |  | syncytia | 3.1 µM
CC[C@H](C)[C@H](NC(=O)C(C)N(C(=O)[C@H](Cc1ccccc1)NC(=O)[C@H](C)NC(=O)OC(C)(C)C)C(Br)CBr)C(=O)N[C@H](C(=O)OC)C(C)C | LAI |  | cytopathic effect / MTT | 111 µg/mL
O=C(O)CCCNC(=O)c1ccccc1SSc1ccccc1C(=O)NCCCC(=O)O | IIIB |  | cytopathic effect / XTT | 3.7 µM
COc1ccc(S(=O)(=O)N(CC(C)C)C[C@@H](O)CCN(CC2CCCC2)S(=O)(=O)Cc2cnco2)cc1 | IIIB |  | p24 | <1 µM
CCOC(=O)c1cc(NC(=S)c2ccoc2C)ccc1C | IIIB | RT-Y181C | syncytia | 0.06 µg/mL

A second listing of 5 rows from above:

structure,strain,changes,read by,result
C=CSC(NC(=O)[C@H](Cc1ccccc1)NS(=O)(=O)N1CCOCC1)C(=O)N[C@@H](CC1CCCCC1)[C@@H](O)C[C@H](C(=O)NCCCC)C(C)C,IIIB,,cytopathic effect / XTT,>13 µM
NC1=NNC2(C(N)=N1)c1ccccc1-c1ccccc12,,,cytopathic effect / XTT,>20 µM
CC1(C)N=C(N)N=C(N)N1c1cccc(CCCCOc2ccccc2)c1,,,cytopathic effect / XTT,0.00525 µM
CCC(C)(C)C(=O)C(=O)N1CCCCC1C(=O)OC(CCc1ccc(OC)c(OC)c1)c1cccc(NC(=O)CCC(=O)N[C@@H](Cc2ccccc2)[C@H](O)CN(CC(C)C)S(=O)(=O)c2ccc(OC)cc2)c1,LAI,,p24 / ELISA,0.0025 µM
Cc1cn([C@@H]2O[C@H](COC(=O)C(C)(C)C)[C@@H](O)[C@H]2OC(=O)C(C)(C)C)c(=O)n(CC(=O)O)c1=O,IIIB,,syncytia,80 µM